Results of unrelated studies side by side (data: NIAID ChemDB).

Shared fields: whole-cell or culture tests; organism: Hepatitis C virus; cells: Huh7.5; read-out: EC50

Blank or dashed fields: not listed here. ECn is the concentration giving n% inhibition of infection, replication or growth. Conditions beyond the fields shown may differ between rows.

SMILES	strain	mutations	method	result
CCOc1ccc2nc(NC(=O)Nc3cccc(OC)c3)sc2c1			PCR	1.7 µM
COc1ccc2c(c1)c(/C=C(\C)C(=O)Nc1ccc(C(C)(C)C)cc1)cn2C(=O)c1ccccc1	2a J6/JFH-1		luciferase / reporter gene	>100 µM
O=c1[nH]c(=O)n([C@H]2C[C@H](O)[C@@H](O)O2)cc1C#Cc1ccc2c3cccc4cccc(c5cccc1c52)c43	JFH-1			0.107 µM
COc1ccc2c(c1)c(/C=C(\C)C(=O)Nc1ccc(C(C)(C)C)cc1)cn2S(=O)(=O)Cc1ccccc1	2a J6/JFH-1		luciferase / reporter gene	5.3 µM
CCN(CC)Cc1ccc(C(=O)N(CCc2ccccc2OC)C2CCNC2)cc1	JFH-1			3.3 µM
Cn1c(=O)c2c(ncn2C)n(C)c1=O	JFH-1		luciferase / replicon	726 µM
COC(=O)C1=C(C(=O)OC)C2N(CCCCCNC(=O)CCCCCNC(=O)CCCC3SCC4NC(=O)NC43)c3ccccc3[C@@]23CC(=O)N(Cc2ccccc2)C3=N1			PCR	4.8 µM
C/C(=C\c1cn(CCN(C)C)c2ccc(C#N)cc12)C(=O)Nc1ccc(C(C)(C)C)cc1	2a J6/JFH-1		luciferase / reporter gene	1.8 µM
O=C(N[C@@H](C(=O)N1CCC[C@H]1c1ncc(-c2ccc(-c3ccc(-c4cnc([C@@H]5CCCN5C(=O)[C@H](NC(=O)C5CC5)c5ccccc5)s4)cc3)cc2)s1)c1ccccc1)C1CC1	genotype 1b	P58L	luciferase / reporter gene	0.000564 µM
C/C(=C\c1cn(S(=O)(=O)Cc2ccccc2)c2ccccc12)C(=O)Nc1ccc(C(C)(C)C)cc1	2a J6/JFH-1		luciferase / reporter gene	1.56 µM
C(=C\c1ccccc1)/CNc1ccc2nc[nH]c2c1			PCR	5.1 µM
COC(=O)C1=C(C(=O)OC)C2N(CCOCCN3c4ccccc4[C@]45CC(=O)N(Cc6ccccc6)C4=NC(C(=O)OC)=C(C(=O)OC)C35)C3C=CC=CC3[C@@]23CCC(=O)N(Cc2ccccc2)C3=N1			PCR	2.5 µM
CNC(=O)c1c(-c2ccc(F)cc2)oc2cc(N(Cc3ccc(B(O)O)c(F)c3)S(C)(=O)=O)c(C3CC3)cc12	Con1 genotype 1b		luciferase	0.0016 µM
C=Cc1c(C)c2cc3nc(c4c5nc(cc6[nH]c(cc1[nH]2)c(C)c6CC)C(C)C5C(=O)C4CC(=O)OC)[C@@H](CCC(=O)OC/C=C(\C)CCC[C@@H](C)CCC[C@@H](C)CCCC(C)C)[C@@H]3C	J6/JFH-P47			54.5 µg/mL
C/C(=C\c1cn(C)c2ccc(C#N)cc12)C(=O)Nc1ccc(C(C)(C)C)cc1	2a J6/JFH-1		luciferase / reporter gene	9.5 µM
O=C(OC[C@H]1O[C@@H](OC(=O)c2cc(O)c(O)c(OC(=O)c3cc(O)c(O)c(O)c3)c2)[C@H](OC(=O)c2cc(O)c(O)c(OC(=O)c3cc(O)c(O)c(O)c3)c2)[C@@H](OC(=O)c2cc(O)c(O)c(OC(=O)c3cc(O)c(O)c(O)c3)c2)[C@@H]1OC(=O)c1cc(O)c(O)c(OC(=O)c2cc(O)c(O)c(O)c2)c1)c1cc(O)c(O)c(OC(=O)c2cc(O)c(O)c(O)c2)c1			luciferase	5.8 µM
COc1c(O)cc2oc3cc(O)c(CC=C(C)C)c(O)c3c(=O)c2c1CC=C(C)C	J6/JFH-1 (gt 2a)		luciferase	6.3 µM
COc1ccc2c(c1)c(/C=C(\C)C(=O)Nc1ccc(C(C)(C)C)cc1)cn2Cc1ccccc1	2a J6/JFH-1		luciferase / reporter gene	>100 µM

The last 2 rows once more:

SMILES	strain	mutations	method	result
COc1c(O)cc2oc3cc(O)c(CC=C(C)C)c(O)c3c(=O)c2c1CC=C(C)C	J6/JFH-1 (gt 2a)		luciferase	6.3 µM
COc1ccc2c(c1)c(/C=C(\C)C(=O)Nc1ccc(C(C)(C)C)cc1)cn2Cc1ccccc1	2a J6/JFH-1		luciferase / reporter gene	>100 µM